The source of these data is patent publication US5451518A, “Purified human ceramide-activated protein kinase” (Sloan-Kettering Institute for Cancer Research, priority 1992, dated 1995).

The subject of this test is ceramide-activated protein kinase. The note with it: HL-60; cholera toxin 10 nM, retinoic acid 0.5 μM, butyrate 0.5 mM.

`CC1=C(/C=C/C(C)=C/C=C/C(C)=C/C(=O)O)C(C)(C)CCC1` [retinoic acid, reference compound]: the “effect on kinase activity (in words)” value was “not stimulated”.

With `CCCCCCCCCCCCC/C=C/[C@@H](O)[C@H](CO)NC(=O)CCCCCCC` [C8 -cer, N-octanoylsphingosine, reference compound], the “effect on kinase activity (in words)” value is recorded as “quantitatively similar to that obtained with a maximal concentration of TNF-α”.
